# Laboratory results from PMC8441738 (MedComm, 2021).
# B1: MA5 monoclonal antibody (antibody, V domains shown)
# VH: EVMLVESGGGLVKPGGSLKLSCAASGFMFSRYAMSWVRQTPEKRLEWVATISSGGSYTYYPDSVKGRFTMSRDNAKNTLYLQMSSLRSEDTAMYNCARHDGNYVDYAMDYWGQGTSVTVSS
# VL: QIVLTQSPAIMSASLGEEITLTCSASSSVSHMHWYQQKSGTSPKLLIYSTFNLASGVPSRFSGSGSGTFYSLTISSVEAEDAADYYCHQWSSWTFGGGTKLEIK
# notes: also called group IV mAb; source: hybridoma cell line or transfection of linear expression cassettes
# Molecular target: SARS-CoV-2 RBD (residues Arg319-Phe541), His-tagged (SARS-CoV-2, UniProt P0DTC2)
# Assay: SPR
binder,measurement,value
B1,binding result,binds
